# Data: IntAct's records for PubMed 18066077
# B1: Ubiquitin-conjugating enzyme E2 L3 (Homo sapiens), P68036-1 (parent)
# chain: MAASRRLMKELEEIRKCGMKNFRNIQVDEANLLTWQGLIVPDNPPYDKGAFRIEINFPAEYPFKPPKITFKTKIYHPNIDEKGQVCLPVISAENWKPATKTDQVIQSLIALVNDPQPEHPLRADLAEEYSKDRKKFCKNAEEFTKKYGEKRPVD
# Variants of: B1
# Settings: with sopa_salty sopA
row,Variant,effect of a mutation on the interaction
1,MAASRRLMKELEEIRKCGMKNFRNIQVDEANLLTWQGLIVPDNPPYDKGAFRIEINFPAEYPAKPPKITFKTKIYHPNIDEKGQVCLPVISAENWKPATKTDQVIQSLIALVNDPQPEHPLRADLAEEYSKDRKKFCKNAEEFTKKYGEKRPVD [F63A],decreasing interaction
